In this assay the target is SARS-CoV-2 receptor-binding domain (RBD), prototype (SARS-CoV-2) (UniProt P0DTC2). In words: SPR. The following applies: Fc fusion.

We go through 1 substance from article PMC9517163.

On to hippopotamus ACE2, mFc-tagged, for which the dissociation constant (Kd) is 66.7 nM. This lies in the double-digit nanomolar range.
